Source: PubChem BioAssay AID2221 (Broad Institute, 2009)
Only a part is listed here, and it is no random draw. Calls of active or inactive are those of the source. No stated cut-off is given here; in the data, active means inhibition above about 30%; inconclusive means no clear call, values can overlap the other calls; inactive means below that.

Chains of the proteins cited; added tags and fusions are not shown. Lines headed by an entry give the natural chain unless they say otherwise; changes in a name come on top.
UniProt P9WHJ3: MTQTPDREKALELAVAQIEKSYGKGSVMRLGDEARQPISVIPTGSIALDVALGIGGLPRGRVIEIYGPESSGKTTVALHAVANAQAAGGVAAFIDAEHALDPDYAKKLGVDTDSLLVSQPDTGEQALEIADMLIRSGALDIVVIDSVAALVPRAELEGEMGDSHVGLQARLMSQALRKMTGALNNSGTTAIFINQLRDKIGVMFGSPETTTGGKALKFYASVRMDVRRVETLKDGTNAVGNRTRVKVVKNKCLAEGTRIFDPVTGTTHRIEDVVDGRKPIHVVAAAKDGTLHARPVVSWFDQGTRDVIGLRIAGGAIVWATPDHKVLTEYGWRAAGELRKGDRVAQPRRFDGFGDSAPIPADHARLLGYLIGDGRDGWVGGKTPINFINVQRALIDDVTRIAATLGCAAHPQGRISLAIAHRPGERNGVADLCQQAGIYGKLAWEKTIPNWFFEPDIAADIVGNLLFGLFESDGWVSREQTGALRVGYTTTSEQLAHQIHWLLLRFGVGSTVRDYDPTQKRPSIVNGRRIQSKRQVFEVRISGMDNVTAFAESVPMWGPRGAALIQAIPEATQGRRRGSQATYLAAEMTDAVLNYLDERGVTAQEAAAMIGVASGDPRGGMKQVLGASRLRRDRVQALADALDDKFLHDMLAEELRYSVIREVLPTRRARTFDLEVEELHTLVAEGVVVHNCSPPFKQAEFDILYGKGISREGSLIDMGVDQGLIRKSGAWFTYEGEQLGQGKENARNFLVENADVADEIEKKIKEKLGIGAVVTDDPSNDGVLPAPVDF

Target: Protein RecA (Mycobacterium tuberculosis (strain ATCC 25618 / H37Rv)) (UniProt P9WHJ3)
Assay: Mtb RecA intein splicing inhibitors, primary screen, biochemical, fluorescence, HTS (AID 2221);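 further: 0% = vehicle wells and 100% = reference inhibitor control wells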
Settings: cell-free RecA intein splicing, hits give high values, concentration not given here

Structure (SMILES) | inhibition
O=C(O)c1ccccc1[As](=O)(O)O | active: 96.9%
O=[N+]([O-])c1cc([N+](=O)[O-])c(CCN2CCOCC2)c([N+](=O)[O-])c1 | active: 77.9%
Nc1cc(N)c2nonc2c1[N+](=O)[O-] | active: 34.2%
CCc1nc2c(n1)c1c(non1O)c1c2no[n+]1[O-] | active: 90.2%
O=[N+]([O-])c1cccc2n[nH]nc12 | active: 48.7%
C[N+]1=C2C=CC=CC=C2SC12C([N+](=O)[O-])=CC([N+](=O)[O-])=C[C-]2[N+](=O)[O-] (stereo unspecified) | active: 57.2%
